## Mutational tolerance of the Zika virus NS2B-NS3 protease

Source: Ni et al. 2025 (doi:10.1038/s41467-025-63602-z), supplementary data.

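Pools of virus carrying all single amino acid changes were selected for growth in Huh-7.5 cells. The effect is the change in frequency of a mutant, normalised to wild type, as a mean of three replicate libraries (two for positions 207-308). The aim was to find sites where inhibitor-binding pockets cannot change.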

The scanned region of Zika virus MR766 is shown below (positions 1-308): NS2B is 2-131, NS3 begins at position 132.
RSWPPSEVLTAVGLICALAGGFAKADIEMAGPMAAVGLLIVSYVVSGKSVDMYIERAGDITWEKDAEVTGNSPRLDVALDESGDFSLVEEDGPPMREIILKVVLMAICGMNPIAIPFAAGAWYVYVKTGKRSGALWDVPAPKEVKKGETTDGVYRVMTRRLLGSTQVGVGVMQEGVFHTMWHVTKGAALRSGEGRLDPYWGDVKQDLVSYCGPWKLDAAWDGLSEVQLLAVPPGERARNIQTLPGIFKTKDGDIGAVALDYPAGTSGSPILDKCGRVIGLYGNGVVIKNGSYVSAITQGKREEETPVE

Scale: log2 effect, wild type = 0; the lower, the more harmful to the virus.
Substitutions are written as wild-type residue, site number, new residue.
Six mutants with high scores were retested singly and none clearly outgrew wild type, so positive values are not proof of better growth.
Stop codons (*) centre on -7 and mark the level of dead virus.
The region was split into three libraries (1-103, 104-206, 207-308).
Position 1 still belongs to NS2A. In the paper, -1 or higher counts as tolerated.

{"substitution": "G201R", "effect (log2)": -7.16}
{"substitution": "Q166N", "effect (log2)": -5.33}
{"substitution": "P94W", "effect (log2)": -3.16}
{"substitution": "R190T", "effect (log2)": -2.22}
{"substitution": "T297I", "effect (log2)": -2.54}
{"substitution": "A23N", "effect (log2)": -1.62}
{"substitution": "V307R", "effect (log2)": -2.71}
{"substitution": "E67S", "effect (log2)": -5.45}
{"substitution": "G13N", "effect (log2)": -6.10}
{"substitution": "E97Y", "effect (log2)": -2.97}
{"substitution": "A256V", "effect (log2)": -6.47}
{"substitution": "D80S", "effect (log2)": 0.51}
{"substitution": "A187S", "effect (log2)": -2.38}
{"substitution": "L229Y", "effect (log2)": -0.50}
{"substitution": "K248A", "effect (log2)": -2.53}
{"substitution": "I254Q", "effect (log2)": -6.08}
{"substitution": "S46R", "effect (log2)": -5.25}
{"substitution": "A187H", "effect (log2)": -4.72}
{"substitution": "I254T", "effect (log2)": -4.74}
{"substitution": "A256Y", "effect (log2)": -5.73}
{"substitution": "A57R", "effect (log2)": -6.80}
{"substitution": "R190W", "effect (log2)": -5.45}
{"substitution": "P269L", "effect (log2)": -5.86}
{"substitution": "L196K", "effect (log2)": -5.82}
{"substitution": "T179C", "effect (log2)": -5.50}
{"substitution": "K145D", "effect (log2)": -3.36}
{"substitution": "G133S", "effect (log2)": -7.08}
{"substitution": "P262E", "effect (log2)": -4.10}
{"substitution": "S86R", "effect (log2)": 0.22}
{"substitution": "L9G", "effect (log2)": -5.27}
{"substitution": "D260V", "effect (log2)": -5.81}
{"substitution": "S224Q", "effect (log2)": -2.42}
{"substitution": "V138N", "effect (log2)": -4.18}
{"substitution": "G267D", "effect (log2)": -5.96}
{"substitution": "G192Y", "effect (log2)": -4.95}
{"substitution": "G47*", "effect (log2)": -3.88}
{"substitution": "A219C", "effect (log2)": 1.10}
{"substitution": "V8F", "effect (log2)": -3.39}
{"substitution": "E303S", "effect (log2)": -0.67}
{"substitution": "G279M", "effect (log2)": -4.30}
{"substitution": "T149Y", "effect (log2)": -5.10}
{"substitution": "M29N", "effect (log2)": -3.45}
{"substitution": "R276N", "effect (log2)": -1.85}
{"substitution": "R238D", "effect (log2)": -5.39}
{"substitution": "G299H", "effect (log2)": -3.07}
{"substitution": "D202H", "effect (log2)": -1.96}
{"substitution": "V124P", "effect (log2)": -7.13}
{"substitution": "G58E", "effect (log2)": -5.78}
{"substitution": "K204N", "effect (log2)": -6.49}
{"substitution": "K64C", "effect (log2)": -0.33}
{"substitution": "I287*", "effect (log2)": -7.00}
{"substitution": "A78W", "effect (log2)": -0.01}
{"substitution": "S86P", "effect (log2)": -6.17}
{"substitution": "D217Q", "effect (log2)": -4.88}
{"substitution": "Y154L", "effect (log2)": -7.19}
{"substitution": "G252*", "effect (log2)": -7.79}
{"substitution": "N289Y", "effect (log2)": -5.97}
{"substitution": "D151Y", "effect (log2)": -2.42}
{"substitution": "I98D", "effect (log2)": -5.49}
{"substitution": "E235*", "effect (log2)": -8.68}
{"substitution": "C211A", "effect (log2)": 0.68}

The opening 3 entries, copied out:

substitution,effect (log2)
G201R,-7.16
Q166N,-5.33
P94W,-3.16